Results from PMC11509758, “New Fusarochromanone Derivatives from the Marine Fungus Fusarium equiseti UBOCC-A-117302” (Marine Drugs, 2024).

Legend:
Settings in all cases: fixed concentration 25 µM, 48 h, primary assessment
U-2 OS cells = assay: Cell viability, MTS reduction assay, U2OS
HCT-116 cells = system: HCT-116 cells
hTERT RPE-1 cells = system: hTERT RPE-1 cells

C[C@H](O)c1nc(=O)c2ccccc2[nH]1 [Compound 7, (−)-chrysogine]
no cytotoxicity: cytotoxicity at 25 µM, U2OS (U-2 OS cells) | cytotoxicity at 25 µM, HCT-116 (HCT-116 cells) | cytotoxicity at 25 µM, RPE-1 (hTERT RPE-1 cells)

C/C=C/[C@@H]1C=C[C@@H]2C[C@H](C)CC[C@H]2[C@]1(C)/C(O)=C1\C(=O)[C@H](CO)N(C)C1=O [Compound 8, equisetin]
no cytotoxicity: cytotoxicity at 25 µM, U2OS (U-2 OS cells) | cytotoxicity at 25 µM, HCT-116 (HCT-116 cells) | cytotoxicity at 25 µM, RPE-1 (hTERT RPE-1 cells)
